Anti-infective test results gathered from many reports (values: NIAID ChemDB through PubChem).

Common to all: whole-cell or culture tests; agent: Candida albicans; endpoint: MIC

Neighbouring rows are from separate reports. Blank or dashed fields: not listed here.

SMILES,strain or isolate,result
O=C(Nc1ccc2nn(C3CCCCC3)nc2c1)c1ccc(Cl)c(Cl)c1,ATCC 10231,>200 µg/mL
Nc1ncnc2c1ncn2[C@@H]1O[C@H](C(=O)O)[C@@H](NC(=O)C(N)Cc2cccc(Cl)c2)[C@H]1O,FP633,3.1 µg/mL
N=C(N)c1ccc(OCCCCCOc2ccc(C(=N)N)cc2)cc1,-,3 µg/mL
CCCCCCCCC(=O)[C@H]1O[C@H]1C(=O)N(CC)CC,G2-sensitive,3.125 µg/mL
CCOP(=O)(CCNC(=O)[C@H]1O[C@@H](n2cnc3c(N)ncnc32)[C@H](O)[C@@H]1NC(=O)[C@H](N)CSCc1ccccc1)OCC,FP633,3.1 µg/mL
Cn1nc2ccc(NC(=O)CCl)cc2n1,ATCC 10231,200 µg/mL
CCCCC/C=C/CCC(=O)[C@H]1O[C@H]1C(=O)N(CC)CC,F2 sensitive,6.25 µg/mL
COc1ccc(C[C@H](N)C(=O)N[C@H]2[C@@H](O)[C@H](n3cnc4c(OC)ncnc43)O[C@@H]2C(=O)O)cc1,FP633,>100 µg/mL
Cc1ccc2c(c1)c1nnc(N3CC[N+](C)([O-])CC3)nc1n2C,2005E,>125 µg/mL
FC(F)(F)c1ccc(OC(CCn2ccnc2)c2ccccc2)cc1,20 strains,38.4 µg/mL
O=S(=O)(NC(=S)Nc1ccccc1)c1ccc(N2N=C(c3ccc(Br)cc3)CC2c2ccccc2)cc1,ATCC 2091,12.5 µg/mL
O=C(CCN1C(=O)S/C(=C\c2ccccc2)C1=O)Nc1cccc(O)c1,-,3.12 µg/mL
CC(C)C(=O)CCC[C@H]1CO[C@@](Cn2ccnc2)(c2ccc(F)cc2F)C1,CI-2,25 µg/mL
COc1ccc(C2CC(=O)C(C)C(c3ccc(OC)cc3)N2OCCc2nc3ncccc3[nH]2)cc1,51 (NCIM-C27),25 µg/mL
CC(C)C(=O)CCC[C@H]1CO[C@@](Cn2cccc2)(c2ccc(F)cc2F)C1,B02630,>100 µg/mL
Cc1ccc(NC(=O)CCN2C(=O)S/C(=C\c3ccccc3Cl)C2=O)cc1,-,>100 µg/mL
O=[N+]([O-])c1ccc(OC(CCn2ccnc2)c2ccccc2)cc1,20 strains,26.8 µg/mL
CC(=O)N1CCN(c2ccc(OC[C@H]3CO[C@](Cn4ccnc4)(c4ccc(Cl)cc4Cl)O3)cc2)CC1,2402E,0.001 µg/mL
CC1(C)C/C(=N\NC(=O)c2ccccc2)c2cc(/C=N/Nc3nnc4c(n3)Nc3ccccc3N4)[nH]c2C1,ATCC 2091,200 µg/mL
Nc1[nH]c(=O)ncc1F,2913,0.25 µg/mL
C[C@@H](n1cnc2cc(C#N)ccc2c1=O)[C@](O)(Cn1cncn1)c1ccc(F)cc1F,60 strains,0.07 µg/mL
Nc1nnc2c(cnc3ccccc32)n1,M-3,30 µg/mL
Fc1ccc(C(CCn2ccnc2)Oc2ccc(Cl)cc2Cl)cc1,20 strains,2.55 µg/mL
Cc1ccc(NC(=O)CCN2C(=O)S/C(=C\c3ccccc3F)C2=O)c(Cl)c1,-,12.5 µg/mL
C[C@@H](n1cnc2c(Cl)cccc2c1=O)[C@](O)(Cn1cncn1)c1ccc(F)cc1F,60 strains,0.15 µg/mL
CC(C)C1=CC2CC3(C=O)C4CC[C@@H](C)C4CC2(CCOC(=O)CC(C)(C)C)C13C(=O)O,-,0.06 µg/mL
Clc1ccc(OC(CCn2ccnc2)c2ccccc2)cc1,20 strains,3.15 µg/mL
COc1ccc(C[C@H](N)C(=O)N[C@H]2[C@@H](O)[C@H](n3cnc4c(N)ncnc43)O[C@@H]2C(=O)NN)cc1,FP633,6.2 µg/mL
N=C(N)c1ccc(-c2ccc(-c3ccc(C(=N)N)cc3)s2)cc1,-,60 µg/mL
CC1C(=O)C(C)C(c2ccccc2)N(OCCc2nc3ncccc3[nH]2)C1c1ccccc1,NCIM-C27,50 µg/mL
CC(C)C(=N)CCC[C@H]1CO[C@@](Cn2cncn2)(c2ccc(F)cc2F)C1,B02630,>100 µg/mL
O=C(Nc1ccc2nn(C3CCCCC3)nc2c1)c1ccc([N+](=O)[O-])cc1,ATCC 10231,100 µg/mL
CC(C)C(=O)CCC[C@@H]1CO[C@@](Cn2ccnc2)(c2ccc(F)cc2F)C1,IFO. 1385,<0.1 µg/mL
C[C@@H](n1cnc2ccc(Br)cc2c1=O)[C@](O)(Cn1cncn1)c1ccc(F)cc1F,60 strains,0.07 µg/mL
CCC(C)n1ncn(-c2ccc(N3CCN(c4ccc(OC[C@H]5CO[C@](Cn6cncn6)(c6ccc(Cl)cc6Cl)O5)cc4)CC3)cc2)c1=O,Darlington,>4 µg/mL
Cc1ccc(OC(CCn2ccnc2)c2ccccc2)cc1,20 strains,9.4 µg/mL
Cn1nc2ccc(NC(=O)c3ccccc3)cc2n1,ATCC 10231,100 µg/mL
NC(N)=N/N=C/c1ccc(-c2cc3ccc(/C=N/N=C(N)N)cc3s2)cc1,-,>60 µg/mL
CC(C)CCC(O)C12C[C@@H]3[C@H](C)CC[C@H]3C3(C=O)CC1C=C(C(C)C)[C@@]23C(=O)O,-,>128 µg/mL
CC(C)C(=O)CCC[C@H]1CO[C@@](Cn2cncn2)(c2ccc(F)cc2F)C1,A.10231,>100 µg/mL
Cc1cc(C)cc(/C=C2\SC(=O)N(CCC(=O)Nc3ccc(C)cc3Cl)C2=O)c1,-,>100 µg/mL
N=C(N)c1ccc(-c2ccc(-c3ccc(C(=N)N)cc3)[nH]2)cc1,-,10 µg/mL
C[C@@H](n1cnc2cc(C(N)=O)ccc2c1=O)[C@](O)(Cn1cncn1)c1ccc(F)cc1F,406 strains,5 µg/mL
COc1nnc2c(cnc3ccccc32)n1,VM-81,40 µg/mL
Nc1ncnc2c1ncn2[C@@H]1O[C@H](C(=O)O)[C@@H](NC(=O)C2CSCN2)[C@H]1O,FP633,>100 µg/mL
COc1ccc(C2C(C)C(=O)C(C)C(c3ccc(OC)cc3)N2OCCc2nc3ncccc3[nH]2)cc1,NCIM-C27,25 µg/mL
COc1ccc(C(=O)/C=C/c2cc3c([nH]2)CC(C)(C)CC3=O)cc1,ATCC 2091,200 µg/mL
CC(C)CCCCC(O)C12C[C@@H]3[C@H](C)CC[C@H]3C3(C=O)CC1C=C(C(C)C)[C@@]23C(=O)O,-,0.5 µg/mL
CC1C(=O)CC(c2ccccc2)N(OCCc2nc3ncccc3[nH]2)C1c1ccccc1,6 (NCIM-C27),200 µg/mL
C(=C\c1cc2cc(C3=NCCN3)ccc2o1)/c1ccc(C2=NCCN2)cc1,-,>60 µg/mL
COc1cc2ncn([C@H](C)[C@](O)(Cn3cncn3)c3ccc(F)cc3F)c(=O)c2cc1OC,76 strains,5 µg/mL
C(=N\Nc1nnc2c(n1)Nc1ccccc1N2)/c1ccccc1,ATCC 2091,200 µg/mL
CCCCCCCCC(=O)[C@H]1O[C@H]1C(=O)NCc1ccccc1,G2-sensitive,6.25 µg/mL
CC(/C=C/C=C(\C)C(O)C(C)C(=O)O[C@H]1C[C@@H](C)C=C2C=C[C@]3(C)O[C@@H](O)CC(=O)[C@]3(C)[C@H]21)=C\C=C\C(=O)O,AC3411,0.78 µg/mL
N=C(N)c1ccc2c(c1)[nH]c1c3cc(C(=N)N)ccc3sc21,-,>60 µg/mL
CC1(C)CC(=O)c2cc(C3CC(c4ccc(Br)cc4)=NN3)[nH]c2C1,ATCC 2091,200 µg/mL
NC(N)=Nc1ccc(-c2cc3cc(N=C(N)N)ccc3s2)cc1,-,10 µg/mL
CC[C@@H](C)[C@H](OC(=O)/C=C/c1ccccc1)[C@H](C)[C@H](O)C/C=C/C=C/C(N)=O,-,1 µg/mL
CC1=NN(c2nnc3c(n2)Nc2ccccc2N3)C(=O)C1=C(C)C,ATCC 2091,200 µg/mL

A second listing of 9 rows from above:

COc1ccc(C2C(C)C(=O)C(C)C(c3ccc(OC)cc3)N2OCCc2nc3ncccc3[nH]2)cc1 ; strain or isolate: NCIM-C27 ; result: 25 µg/mL
O=C(Nc1ccc2nn(C3CCCCC3)nc2c1)c1ccc([N+](=O)[O-])cc1 ; strain or isolate: ATCC 10231 ; result: 100 µg/mL
C[C@@H](n1cnc2cc(C#N)ccc2c1=O)[C@](O)(Cn1cncn1)c1ccc(F)cc1F ; strain or isolate: 60 strains ; result: 0.07 µg/mL
C[C@@H](n1cnc2c(Cl)cccc2c1=O)[C@](O)(Cn1cncn1)c1ccc(F)cc1F ; strain or isolate: 60 strains ; result: 0.15 µg/mL
NC(N)=Nc1ccc(-c2cc3cc(N=C(N)N)ccc3s2)cc1 ; result: 10 µg/mL
O=C(CCN1C(=O)S/C(=C\c2ccccc2)C1=O)Nc1cccc(O)c1 ; result: 3.12 µg/mL
CCOP(=O)(CCNC(=O)[C@H]1O[C@@H](n2cnc3c(N)ncnc32)[C@H](O)[C@@H]1NC(=O)[C@H](N)CSCc1ccccc1)OCC ; strain or isolate: FP633 ; result: 3.1 µg/mL
N=C(N)c1ccc2c(c1)[nH]c1c3cc(C(=N)N)ccc3sc21 ; result: >60 µg/mL
CC1(C)CC(=O)c2cc(C3CC(c4ccc(Br)cc4)=NN3)[nH]c2C1 ; strain or isolate: ATCC 2091 ; result: 200 µg/mL